PubChem BioAssay AID504761, Drosophila RNAi Screening Center – 2011

- Purpose: 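Genome-wide fly cell screen for genes dengue virus requires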 (primary screen)
- System: D.Mel-2 cells from Drosophila
- Reagents: long dsRNA against Drosophila genes
- Treatment: infection with dengue virus type 2; dose and infection time not stated
- Measurement: 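Per well on two replicate plates, imaging gave the percent of cells positive for viral envelope protein, ranked by infection, and a nuclear count of cells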
- Reading the numbers: infection score: higher = more virus-infected cells; cell count: higher = more cells in the well
- Rule for the call: 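Low infection ranks in the two replicates (chance level up to 0.065) followed by a retest with a 1.5-fold or larger significant decrease, p below 0.05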
- Meaning of the calls: active = confirmed: knock-down lowers infection; inactive = not picked or not confirmed
The screen tested about 22,000 reagents; below is a random part of those that have a named target and a result. Of all reagents, 116 (0.52%) got an active call. 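Calls depend on retest data that are not deposited; infection was ranked per plate without normalising between plates; the unit of the infection score is not given.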 Raw values vary from plate to plate and are shown uncorrected. Not given: the amount of reagent, the time to read-out.

The first 2 records as a preview:
Target gene | DRSC id | infection score, replicate 1 | infection score, replicate 2 | cell count, replicate 1 | cell count, replicate 2 | call
CG15728 (GeneID 32214) | DRSC19694 | 2.47 | 1.86 | 6838 | 6892 | inactive
CG15728 (GeneID 32214) | DRSC22868 | 3.08 | 2.06 | 6096 | 6493 | inactive

Results, repeating the preview:
Target gene | DRSC id | infection score, replicate 1 | infection score, replicate 2 | cell count, replicate 1 | cell count, replicate 2 | call
CG15728 (GeneID 32214) | DRSC19694 | 2.47 | 1.86 | 6838 | 6892 | inactive
CG15728 (GeneID 32214) | DRSC22868 | 3.08 | 2.06 | 6096 | 6493 | inactive
CG15728 (GeneID 32214) | DRSC28662 | 17.4 | 12.4 | 5943 | 2582 | inactive
CG18304 (GeneID 33969) | DRSC02664 | 2.05 | 10.4 | 6061 | 5774 | inactive
CG18304 (GeneID 33969) | DRSC28389 | – | – | 248 | 336 | inactive
CG31088 (GeneID 318590) | DRSC13123 | 4.53 | 0.25 | 6119 | 5930 | inactive
CG31088 (GeneID 318590) | DRSC25600 | 2.67 | 2.02 | 6545 | 6173 | inactive
scramb1 (GeneID 326186) | DRSC09724 | 1.98 | 2.64 | 5416 | 5767 | inactive
scramb1 (GeneID 326186) | DRSC10667 | 3.11 | 3.09 | 5732 | 5657 | inactive
scramb1 (GeneID 326186) | DRSC10668 | 0.97 | 4.92 | 5899 | 5369 | inactive
c12.1 (GeneID 53435) | DRSC18750 | 5.21 | 7.71 | 4470 | 4304 | inactive
c12.1 (GeneID 53435) | DRSC25556 | 5.09 | 14.6 | 4971 | 5029 | inactive
CG17294 (GeneID 34155) | DRSC02596 | 3.36 | 16.4 | 6725 | 5204 | inactive
Rh6 (GeneID 41889) | DRSC16823 | 4.89 | 29.7 | 6518 | 5615 | inactive
Rh6 (GeneID 41889) | DRSC26166 | 12.1 | 5.73 | 5336 | 6688 | inactive
Cht2 (GeneID 38223) | DRSC08650 | 21.9 | 16.3 | 4532 | 4238 | inactive
Cht2 (GeneID 38223) | DRSC24801 | 4.16 | 5.33 | 5933 | 6112 | inactive
Mccc2 (GeneID 59261) | DRSC04987 | 18.4 | 14.7 | 5319 | 4877 | inactive
CG16798 (GeneID 35308) | DRSC02517 | 3.15 | 7.46 | 7053 | 6820 | inactive
CG1764 (GeneID 32281) | DRSC19779 | 1.06 | 6.02 | 6870 | 6956 | inactive
CG5439 (GeneID 34710) | DRSC02861 | 12.3 | 13.7 | 6363 | 6221 | inactive
CG5439 (GeneID 34710) | DRSC25932 | 1 | 3.09 | 6075 | 6431 | inactive
CG17377 (GeneID 33954) | DRSC00950 | 2.15 | 9.73 | 5956 | 6679 | inactive
CG17377 (GeneID 33954) | DRSC02615 | 16.5 | 16.5 | 5457 | 5470 | inactive
CG17377 (GeneID 33954) | DRSC21811 | 1.62 | 1.11 | 5433 | 5490 | inactive
CG17377 (GeneID 33954) | DRSC28817 | 11.2 | 0.49 | 2684 | 411 | inactive
Tdh (GeneID 40268) | DRSC11788 | 0.21 | 26.4 | 485 | 5846 | inactive
CG13325 (GeneID 36437) | DRSC06362 | 20.9 | 23.8 | 6242 | 5736 | inactive
CG13325 (GeneID 36437) | DRSC24773 | 1.82 | 1.62 | 7086 | 6360 | inactive
gb (GeneID 43265) | DRSC15961 | 2.33 | 2.68 | 6320 | 6904 | inactive
gb (GeneID 43265) | DRSC24834 | 15.8 | 6.58 | 6547 | 6534 | inactive
CAH13 (GeneID 36126) | DRSC06128 | 15.2 | 8.36 | 5980 | 7025 | inactive
CAH13 (GeneID 36126) | DRSC24093 | 15.2 | 19.5 | 4995 | 3433 | inactive
CG9396 (GeneID 41156) | DRSC16487 | 2.93 | 26.4 | 6492 | 5584 | inactive
CG9396 (GeneID 41156) | DRSC24611 | 2.55 | 13.5 | 6035 | 5484 | inactive
DCTN2-p50 (GeneID 44086) | DRSC07132 | 12.8 | 12.7 | 4933 | 5555 | inactive
CG2681 (GeneID 31258) | DRSC18464 | 20 | 6.34 | 5887 | 6597 | inactive
CG2681 (GeneID 31258) | DRSC24864 | 1.55 | 1.74 | 6056 | 5935 | inactive
Pcif1 (GeneID 40295) | DRSC11655 | 20.2 | 20.8 | 2197 | 5642 | inactive
Pcif1 (GeneID 40295) | DRSC24012 | 5.24 | 2.85 | 6466 | 6487 | inactive
